A mixed list of measured activities; the numbers were collected in NIAID ChemDB.

All rows: whole-cell or culture tests; organism: Candida dubliniensis

a–b is a range or a potency band.

structure | strain or isolate | tested at | read by | read-out | result
CC(C)S(=O)(=O)N1CCN(c2cnn(-c3cc(F)cc(F)c3)c(=O)c2OC2CCC(F)C2)CC1 | C345 | - | broth dilution | MIC | 0.5 µg/mL
CCOC(=O)C1C(=O)C=C(c2ccc(Cl)cc2)CC1c1ccc(C2CC(c3ccc(Cl)cc3)=CC(=O)C2C(=O)OCC)cc1 | Clinical isolate | - | - | MIC | 6.25 µg/mL
Clc1ccc(C(c2ccccc2)n2cnc3ccccc32)cc1 | - | - | broth dilution | MFC | >256 µg/mL
CCCCCOc1ccc(-c2cc(-c3ccc(C(=O)N[C@H]4C[C@@H](O)[C@@H](O)NC(=O)[C@@H]5[C@@H](O)[C@@H](C)CN5C(=O)[C@H]([C@H](O)CC(N)=O)NC(=O)[C@H]([C@H](O)[C@@H](O)c5ccc(O)c(OS(=O)(=O)O)c5)NC(=O)[C@@H]5C[C@@H](O)CN5C(=O)[C@H]([C@@H](C)O)NC4=O)cc3)no2)cc1 | - | - | broth dilution | MIC50 | 0.016 µg/mL
CC(C)C[C@H](N)C(=O)O | T-98 QC2000 | - | broth dilution | MFC100 | >72000 µg/mL
C[C@@H](c1ncncc1F)[C@](O)(Cn1cncn1)c1ccc(F)cc1F | - | - | - | MIC50 | 0.008–0.03 µg/mL
C[C@H]1[C@H](O)[C@@H](C)/C=C/C=C/C=C/C=C/C=C/C=C/C=C/[C@H](O[C@@H]2O[C@H](C)[C@@H](O)[C@H](N)[C@@H]2O)C[C@@H]2O[C@](O)(C[C@@H](O)C[C@@H](O)CC[C@H](O)[C@@H](O)C[C@@H](O)CC(=O)O[C@H]1C)C[C@H](O)[C@H]2C(=O)O | ATCC MAY 646 | - | broth dilution / absorbance | MIC99 | 0.39 µM
CC(C)CC(O)C(=O)O | T-98 QC2000 | - | broth dilution | EC50 | 18000 µg/mL
Clc1ccc(C(c2ccccc2)n2cncn2)cc1 | - | - | broth dilution | MFC | 64 µg/mL
COC(=O)c1ccc(C[C@H](C(=O)OC)[C@@H](O)C(=O)OC)cc1 | CBS 7987 | - | - | MIC | 2 µg/mL
O=C(c1ccccc1)C(c1ccccc1)n1cncn1 | - | - | agar | MIC90 | 4 µg/mL
CC(=O)N1CCN(c2ccc(OC[C@H]3CO[C@](Cn4ccnc4)(c4ccc(Cl)cc4Cl)O3)cc2)CC1 | D0 | 20 mg/mL | agar diffusion / agar | zone | 10 mm
Clc1ccc(C(c2ccccc2)n2ccnc2)cc1 | - | - | agar | MIC90 | 0.5 µg/mL
CCOC(=O)C1C(=O)C=C(c2ccc(OC)cc2)CC1c1ccc(C2CC(c3ccc(OC)cc3)=CC(=O)C2C(=O)OCC)cc1 | Clinical isolate | - | - | MIC | 200 µg/mL
O=C(c1ccccc1)C(c1ccccc1)n1nnc2ccccc21 | - | - | agar | MIC90 | >256 µg/mL
CCOC(=O)C1C(=O)C=C(c2ccc(F)cc2)CC1c1ccc(C2CC(c3ccc(F)cc3)=CC(=O)C2C(=O)OCC)cc1 | Clinical isolate | - | - | MIC | 25 µg/mL
COc1ccc(C(c2ccc(OC)cc2)n2ccnc2)cc1 | - | - | agar | MIC90 | >256 µg/mL
CCC(C)n1ncn(-c2ccc(N3CCN(c4ccc(OC[C@H]5CO[C@](Cn6cncn6)(c6ccc(Cl)cc6Cl)O5)cc4)CC3)cc2)c1=O | - | - | broth dilution | MIC50 | 0.03 µg/mL

2 of the rows above, restated:

structure	strain or isolate	tested at	read by	read-out	result
CCCCCOc1ccc(-c2cc(-c3ccc(C(=O)N[C@H]4C[C@@H](O)[C@@H](O)NC(=O)[C@@H]5[C@@H](O)[C@@H](C)CN5C(=O)[C@H]([C@H](O)CC(N)=O)NC(=O)[C@H]([C@H](O)[C@@H](O)c5ccc(O)c(OS(=O)(=O)O)c5)NC(=O)[C@@H]5C[C@@H](O)CN5C(=O)[C@H]([C@@H](C)O)NC4=O)cc3)no2)cc1	-	-	broth dilution	MIC50	0.016 µg/mL
CC(C)CC(O)C(=O)O	T-98 QC2000	-	broth dilution	EC50	18000 µg/mL

Zones are inhibition diameters on agar. A number after MIC or MFC names an inhibition level or a share of isolates. ECn: concentration that inhibits the pathogen or its effect by n%. Neighbouring rows are from separate reports. An empty or dashed field is not shown.